Data from paper PMC8523698, “Preclinical characterization of an intravenous coronavirus 3CL protease inhibitor for the potential treatment of COVID19” (Nature Communications, 2021).

Tested on: SARS-CoV-2 USA-WA1/2020
Test: Ad5-hACE2 SARS-CoV-2 mouse infection model
Type: in vivo, BALB/c mice
Details: 100 mg/kg S.C. BID from day 0; day 3

Q: How did the “reduction in lung viral titers” value turn out when `COc1cccc2[nH]c(C(=O)N[C@@H](CC(C)C)C(=O)N[C@@H](C[C@@H]3CCNC3=O)C(=O)CO)cc12` [PF-00835231] was run?
A: The value was “≈ 1.5 log10”.
